A mixed list of measured activities; the numbers were collected in NIAID ChemDB.

Common to all: growth or infection tests; agent: HIV-1; cell line: MT-4; endpoint: EC50

An empty or dashed field is not shown.

compound | strain or isolate | changes | method | value
N#Cc1ccc(Nc2nc(Oc3ccc(-c4ccc(C#N)cc4)cc3[N+](=O)[O-])c3sccc3n2)cc1 | IIIB | Y188L | MTT | >15.14 µM
CC(C)=CCc1c(O)c(CC=C(C)C)c2occ(-c3ccc(O)cc3)c(=O)c2c1O | IIIB | - | MTT | >20 µg/mL
Cc1cn([C@H]2C[C@H](N=[N+]=[N-])[C@@H](CO)O2)c(=O)[nH]c1=O | 13MB1 (TIBO-resistant RT L100I) | RT-L100I | MTT | 0.0001 µg/mL
NC(N)=NCCC[C@H](N)C(=O)NC[C@H]1O[C@H](O[C@H]2C(O)[C@@H](O[C@H]3O[C@H](CO)[C@@H](O)[C@H](NC(=O)[C@@H](N)CCCN=C(N)N)[C@H]3O)[C@H](NC(=O)[C@@H](N)CCCN=C(N)N)C[C@@H]2NC(=O)[C@@H](N)CCCN=C(N)N)[C@H](O)[C@@H](O)[C@@H]1O | NL4-3 | - | cytopathic effect / MTT | 31 µM
CC(=O)c1ccc(C)cc1NC(C(N)=O)c1c(Cl)cccc1Cl | NL4-3 | - | cytopathic effect / MTT | 0.0005 µg/mL
Cc1cc(C#N)cc(C)c1Oc1nc(NC2CCN(Cc3cccc(C(N)=O)c3)CC2)nc2sccc12 | RES056 | - | MTT | 4.69 µM
CC(C)OC(=O)OCOP(=O)(CO[C@H](C)Cn1cnc2c(N)ncnc21)OCOC(=O)OC(C)C | NL4-3 | K65R | cytopathic effect / XTT / absorbance | 0.1 µM
C=CCOC(=O)OCOP(=O)(COCCn1cnc2c(N)ncnc21)OCOC(=O)OCC=C | - | - | p24 | >30 µM
C1CNCCNCCCN(CCCN2CCCNCCNCCCNCC2)CCNC1 | NL4-3 | - | cytopathic effect / MTT | 0.4 µg/mL
c1ccc2c(CN3CCCNCCNCCCNCC3)cc(CN3CCCNCCNCCCNCC3)cc2c1 | RF | - | cytopathic effect / MTT | 0.36 µg/mL
Cc1cc(-c2ccc(C#N)cc2)cc(C)c1Oc1nc(Nc2ccc(C#N)cc2)nc2ccsc12 | IIIB | K103N | MTT | 0.0338 µM
CCC(C)Oc1nc(N)cc(Sc2cc(C)cc(C)c2)n1 | IIIB | - | cytopathic effect / MTT | >117 µM
CC(C)OP(=O)(COC[C@H]1C[C@@]1(c1ccccc1)n1cnc2c(N)ncnc21)OC(C)C | - | - | cytopathic effect | >100 µM
N#Cc1ccc(Nc2nc(Oc3ccc(-c4ccc(C#N)cc4)cc3C#N)c3sccc3n2)cc1 | IIIB | - | MTT | 0.0702 µM
Cc1cn([C@H]2C[C@H](N=[N+]=[N-])[C@@H](CO)O2)c(=O)[nH]c1=O | SDF-resistant (subtype B) | - | MTT | 0.0006 µg/mL
O=C(N/N=C/c1ccccc1[N+](=O)[O-])c1csc(N2N=C(c3ccccc3)CC2c2ccc(Cl)cc2)n1 | IIIB | - | MTT / absorbance | >125 µM
CCC(C)(C)c1c(O)cc(O)c2c(=O)c(O)c(-c3cc(O)c4c(c3CC=C(C)C)CCC(C)(C)O4)oc12 | IIIB | - | cytopathic effect / MTT | >20 µg/mL
Cc1cc(C#N)cc(C)c1Oc1nc(NC2CCC(NCc3ccc(Br)cc3)CC2)nc2ccsc12 | IIIB | NNRTI-resistant (RT L100I) | MTT | ≥1.4 µM
O=C(N/N=C/c1ccccc1O)c1csc(N2N=C(c3ccccc3)CC2c2ccc(Cl)cc2)n1 | IIIB | - | MTT / absorbance | >7.33 µM
CCC(C)Oc1cc(N)nc(OC(C)CC)n1 | IIIB | - | cytopathic effect / MTT | >300 µM
COc1ccc(-c2oc3cc(O)cc(O)c3c(=O)c2OC)cc1O | IIIB | - | cytopathic effect / MTT | >0.16 µg/mL
O=C(N/N=C/c1ccc(Cl)cc1O)c1csc(N2N=C(c3ccccc3)CC2c2ccc(Cl)cc2)n1 | IIIB | - | MTT / absorbance | 0.45 µM
Cc1cn([C@H]2C[C@H](N=[N+]=[N-])[C@@H](CO)O2)c(=O)[nH]c1=O | IIIB | NNRTI-resistant (RT L100I) | MTT | 0.00375 µM
CC(C)[C@H](NC(=O)N(C)Cc1ccccn1)C(=O)N[C@@H](Cc1ccccc1)[C@H](O)[C@H](O)[C@H](Cc1ccccc1)NC(=O)[C@@H](NC(=O)N(C)Cc1ccccn1)C(C)C | LAV | - | cytopathic effect / MTT | 0.24 µM
COc1ccc(-c2oc3c4c(cc(O)c3c(=O)c2CC=C(C)C)OC(C)(C)C=C4)c(OC)c1 | IIIB | - | cytopathic effect / MTT | >500 µg/mL
CCC(C)Oc1cc(N)nc(Sc2ccc(Cl)cc2)n1 | IIIB | - | cytopathic effect / MTT | >106 µM
CO[P@](=O)(c1cc(C)cc(/C=C/C#N)c1)c1c(C(N)=O)[nH]c2ccc(Cl)cc12 | BH10 | K103N | - | 0.00014 µM
CC(C)CCNC(=O)C(F)(F)C(=O)[C@H](Cc1ccc(OCc2ccccc2)cc1)NC(=O)[C@@H](NC(=O)OCc1ccccc1)C(C)C | RF | - | cytopathic effect / MTT | >44 µM
C[C@H](Cn1cnc2c(N)ncnc21)OCP(=O)(O)O | NL4-3 | - | cytopathic effect / XTT / absorbance | 4.89 µM
O=C(N/N=C/c1ccc(O)cc1)c1csc(N2N=C(c3ccccc3)CC2c2ccc(Cl)cc2)n1 | IIIB | - | MTT / absorbance | >17.75 µM
C[C@H](Cn1cnc2c(N)ncnc21)OCP(=O)(OCOC(=O)OC1CCCCC1)OCOC(=O)OC1CCCCC1 | - | - | p24 | 17.5 µM
c1cc(CCN2CCCNCCNCCCNCC2)ccc1CCN1CCCNCCNCCCNCC1 | NL4-3 | AMD3100-resistant | cytopathic effect / MTT | >5 µg/mL
c1cc(CN2CCCNCCNCCCNCC2)ccc1CN1CCCNCCNCCCNCC1 | NL4-3 | - | cytopathic effect / MTT | 0.01 µM
Nc1ncnc2c1ncn2CCOCP(=O)(OCOC(=O)OC1CCCCC1)OCOC(=O)OC1CCCCC1 | - | - | p24 | 23.1 µM
CC(C)=CCC/C(C)=C/Cc1cc(-c2cc(=O)c3c(O)cc(O)cc3o2)ccc1O | IIIB | - | cytopathic effect / MTT | >40 µg/mL
CCCCSc1nc(N)cc(Sc2ccc3ccccc3c2)n1 | IIIB | - | cytopathic effect / MTT | >68 µM
O=c1ccn([C@]2(c3ccccc3)C[C@@H]2CO)c(=O)[nH]1 | - | - | cytopathic effect | >100 µM
c1ncc(CN2CCCNCCNCCCNCC2)cc1CN1CCCNCCNCCCNCC1 | RF | - | cytopathic effect / MTT | 0.08 µg/mL
CC(C)=CCc1c(-c2ccc(O)cc2O)oc2cc(O)cc(O)c2c1=O | IIIB | - | cytopathic effect / MTT | >8 µg/mL
C=CCOC(=O)OCOP(=O)(COCCn1cnc2c(N)ncnc21)OCOC(=O)OCC=C.O=C(O)/C=C/C(=O)O | IIIB | - | p24 | >30 µM
CC(C)CNC(=O)C(F)(F)C(=O)[C@H](Cc1ccc(OCc2ccccc2)cc1)NC(=O)[C@@H](NC(=O)OCc1ccccc1)C(C)C | RF | - | cytopathic effect / MTT | 0.32 µM
CCCCSc1cc(N)nc(Cl)n1 | IIIB | - | cytopathic effect / MTT | >114 µM
CC(C)=CCc1c(-c2ccc(O)cc2O)oc2c3c(cc(O)c2c1=O)OC(c1c(O)cc(O)c2c(=O)c(CC=C(C)C)c(-c4ccc(O)cc4O)oc12)C1C3C=C(C)CC1(C)C | IIIB | - | cytopathic effect / MTT | >20 µg/mL
Cc1cc(C#N)cc(C)c1Oc1nc(Nc2ccc(C#N)cc2)nc(N)c1Br | IIIB | NNRTI-resistant (RT E138K) | MTT | 0.0144 µM
Cc1ccnc2c1NC(=O)c1cccnc1N2C1CC1 | RES056 | - | MTT | >15.9 µM
O=c1c(Oc2ccccc2)coc2cc(O)cc(O)c12 | IIIB | - | cytopathic effect / MTT | >100 µg/mL
O=c1[nH]cnc2c1ncn2[C@H]1CC[C@@H](CO)O1 | ADP141 (RT D67N K70N T215F K219Q) | RT-D67N K70N T215F K219Q | MTT | 1.6 µg/mL
O=C(O)c1cc(CN2CCCNCCNCCCNCC2)ccc1CN1CCCNCCNCCCNCC1 | NL4-3 | AMD3100-resistant | cytopathic effect / MTT | >250 µg/mL
CC(C)=CCc1cc(C2CC(=O)c3ccc(O)c(CC=C(C)C)c3O2)ccc1O | IIIB | - | MTT | >100 µg/mL
CC(C)OP(=O)(COC[C@H]1C[C@@]1(c1ccccc1)n1ccc(=O)[nH]c1=O)OC(C)C | - | - | cytopathic effect | 50.7 µM
COc1cc(/C=N/NC(=O)c2csc(N3N=C(c4ccccc4)CC3c3ccc(Cl)cc3)n2)ccc1O | IIIB | - | MTT / absorbance | >60.1 µM
Nc1ncnc2c1ncn2[C@]1(c2ccccc2)C[C@@H]1COCP(=O)(O)O | - | - | cytopathic effect | >100 µM
c1cc(CN2CCCNCCNCCCNCC2)ccc1CN1CCCNCCNCCCNCC1 | Y188L (subtype B) | - | MTT | 0.001 µg/mL

5 of the rows above, restated:

compound,strain or isolate,changes,method,value
CC(C)=CCc1c(-c2ccc(O)cc2O)oc2cc(O)cc(O)c2c1=O,IIIB,-,cytopathic effect / MTT,>8 µg/mL
c1ccc2c(CN3CCCNCCNCCCNCC3)cc(CN3CCCNCCNCCCNCC3)cc2c1,RF,-,cytopathic effect / MTT,0.36 µg/mL
CC(C)OC(=O)OCOP(=O)(CO[C@H](C)Cn1cnc2c(N)ncnc21)OCOC(=O)OC(C)C,NL4-3,K65R,cytopathic effect / XTT / absorbance,0.1 µM
C[C@H](Cn1cnc2c(N)ncnc21)OCP(=O)(O)O,NL4-3,-,cytopathic effect / XTT / absorbance,4.89 µM
Cc1cc(C#N)cc(C)c1Oc1nc(NC2CCC(NCc3ccc(Br)cc3)CC2)nc2ccsc12,IIIB,NNRTI-resistant (RT L100I),MTT,≥1.4 µM

ECn: concentration that inhibits the pathogen or its effect by n%. Conditions beyond the fields shown may differ between rows.